# System: TB40/E^UL32-EGFP
# Assay: TB40/E^UL32-EGFP virus particle imaging
# Details: after 2hpi, compared to no treatment
substance,measurement,value
heparin [reference compound],TB40/E^UL32-EGFP particles in cells,displayed limited the virus particles in the cells

# Source: paper PMC9907720 (Antiviral research, 2022)
